Compound potency records, mixed from different reports. Data source: NIAID ChemDB in PubChem.

All rows: whole-cell or culture tests; agent: Mycobacterium kansasii

MIC50, MIC90 and the like: level of inhibition, or share of isolates inhibited. Conditions beyond the fields shown may differ between rows. Blank or dashed fields: not listed here.

structure	strain	method	measure	setting	value
O=C(OCc1ccccc1)N1CCC[C@H]1c1cnc(-c2ccc([N+](=O)[O-])cc2)[nH]1	My 35/80		MIC	7 d	62.5 µM
N/C(=N\N=C\c1cc(Cl)ccc1O)SCc1ccc(F)cc1	ATCC 12478	broth dilution	MIC	14 d	16 µM
CC(C)[C@H](NC(=O)OCc1ccccc1)c1cnc(-c2ccccc2)[nH]1	My 235/80		MIC	14 d	62.5 µM
Cc1ccc2nc(C)c(C(=O)NCc3ccc(C(F)(F)F)cc3)n2c1	Clinical isolate 379	MTT	MIC		<0.06 µg/mL
CCC(C)c1ccc(-n2c(=S)oc3ccc(Br)cc3c2=S)cc1	6509/96	broth dilution	MIC	21 d	4 µM
CC[C@@H](C)[C@H](NC(=O)OCc1ccccc1)c1cnc(-c2ccc([N+](=O)[O-])cc2)[nH]1	My 235/80		MIC	7 d	32 µM
O=C(Nc1ccc(Cl)cc1)c1cc(Cl)ccc1OS(=O)(=O)c1ccccc1	235/80		MIC	7 d	8 µM
CCCCCCCCc1ccc(NC(=O)NNC(=O)c2ccncc2)cc1	My 235/80	broth dilution	MIC100	14 d	500 µM
O=C(Oc1cc(Cl)ccc1C(=O)Nc1ccc(Br)cc1)c1ccccc1	6509/96	broth dilution	MIC	21 d	4 µM
O=C(NNC(=O)c1ccncc1)Nc1ccc(Cl)c(C(F)(F)F)c1	My 6509/96	broth dilution	MIC100	14 d	125 µM
O=C(Oc1ccc(Cl)cc1C(=O)Nc1ccc(C(F)(F)F)cc1)c1cnccn1	6509/96		MIC	14 d	2 µM
CCC(C)c1ccc(-n2c(=S)oc3cc(C)ccc3c2=S)cc1	6509/96	broth dilution	MIC	14 d	8 µM
N/C(=N\N=C\c1ccccc1)SCc1ccccc1	6509/96	broth dilution	MIC	14 d	125 µM
Cc1ccn2c(C(=O)NCc3ccc4c(c3)CCO4)c(C)nc2c1	Clinical isolate SHP	MTT	MIC		32 µg/mL
CC(C)c1ccc(NC(=O)NNC(=O)c2ccncc2)cc1	My 6509/96	broth dilution	MIC100	21 d	16 µM
Cc1ccc(CS/C(N)=N/N=C/c2ccccc2)cc1	ATCC 12478	broth dilution	MIC	21 d	62.5 µM
O=C(Oc1cc(Cl)ccc1C(=O)Nc1ccc(F)cc1)c1ccccc1	235/80	broth dilution	MIC	21 d	8 µM
O=C(Nc1ccc(Cl)c(Cl)c1)c1cc(Cl)ccc1O	6509/96	broth dilution	MIC	21 d	8 µM
Fc1ccc(-n2c(=S)oc3ccc(Cl)cc3c2=S)cc1	6509/96		MIC	21 d	8 µM
O=C(Oc1ccc(Cl)cc1C(=O)Nc1ccc(Br)cc1)c1ccccc1	6509/96	broth dilution	MIC	14 d	4 µM
O=C(NC1CCCCC1)N(C(=O)c1cnccn1)C1CCCCC1	235/80		MIC	14 d	>500 µM
COc1ccc2oc(=O)n(-c3ccc(C(F)(F)F)cc3)c(=S)c2c1	My 235/80		MIC	14 d	32 µM
O=C(Nc1cccc(Br)c1)c1cc(Cl)ccc1OS(=O)(=O)c1ccccc1	6509/96		MIC	21 d	8 µM
Cc1ccc(NC(=O)NNC(=O)c2ccncc2)cc1	My 235/80	broth dilution	MIC100	21 d	>125 µM
O=C(Oc1ccc(Cl)cc1C(=O)Nc1cccc(C(F)(F)F)c1)c1cnccn1	6509/96		MIC	14 d	8 µM
COc1ccc2oc(=O)n(-c3ccc(Cl)cc3)c(=S)c2c1	6509/96		MIC	14 d	16 µM
C[C@H](NC(=O)OCc1ccccc1)c1cnc(-c2ccccc2)[nH]1	My 6509/96		MIC	21 d	125 µM
O=C(Nc1cccc(Br)c1)c1ccc(Cl)cc1OS(=O)(=O)c1ccccc1	6509/96		MIC	7 d	32 µM
O=C(Oc1ccc(Cl)cc1C(=O)Nc1cccc(Cl)c1)c1cnccn1	6509/96		MIC	21 d	4 µM
O=C(Nc1cccc(F)c1)c1cc(Cl)ccc1OS(=O)(=O)c1ccccc1	6509/96		MIC	14 d	32 µM
O=C(Oc1cc(Cl)ccc1C(=O)Nc1cccc(F)c1)c1cnccn1	6509/96		MIC	14 d	4 µM
N=C(N)N1N=C(/C=C/c2ccccc2)CC1c1ccccc1		resazurin	MIC		2.15 µM
O=C(Oc1ccc(Cl)cc1C(=O)Nc1ccc(F)cc1)c1cnccn1	6509/96		MIC	21 d	8 µM
Fc1ccc2oc(=S)n(-c3ccc(C(F)(F)F)cc3)c(=S)c2c1	My 235/80		MIC	14 d	8 µM
O=C(Nc1ccc(F)cc1)c1cc(Cl)ccc1OS(=O)(=O)c1ccccc1	235/80		MIC	7 d	8 µM
CC(C)[C@H](NC(=O)OCc1ccccc1)c1cnc(-c2ccc([N+](=O)[O-])cc2)[nH]1	My 6509/96		MIC	14 d	32 µM
COc1ccc(/C=C/C2=NN(C(=N)N)C(c3ccc(OC)cc3)C2)cc1		resazurin	MIC		3.57 µM
Cc1ccc2oc(=S)n(-c3ccc(F)cc3)c(=S)c2c1	My 235/80		MIC	21 d	16 µM
Cc1ccccc1/C=C/C1=NN(C(=N)N)C(c2ccccc2C)C1		resazurin	MIC		1.96 µM
C[C@@H](NC(=O)OCc1ccccc1)c1cnc(-c2ccccc2)[nH]1	My 6509/96		MIC	21 d	125 µM
O=C(Oc1ccc(Cl)cc1)c1cnccn1	235/80		MIC	21 d	500 µM
O=C(Oc1cc(Cl)ccc1C(=O)Nc1ccc(Cl)cc1)c1ccccc1	6509/96	broth dilution	MIC	14 d	2 µM
N/C(=N\N=C\c1cc(Br)ccc1O)SCc1ccc(F)cc1	ATCC 12478	broth dilution	MIC	14 d	32 µM
O=C(Nc1ccc(Cl)c(Cl)c1)c1cc(Cl)ccc1OS(=O)(=O)c1ccccc1	235/80		MIC	21 d	8 µM
N/C(=N\N=C\c1cc(Cl)cc(Cl)c1O)SCc1cccc(Cl)c1	ATCC 12478	broth dilution	MIC	21 d	62.5 µM
O=C(Oc1cc(Cl)ccc1C(=O)Nc1cccc(Cl)c1)c1cnccn1	6509/96		MIC	14 d	4 µM

Again, the opening 5 rows:

structure	strain	method	measure	setting	value
O=C(OCc1ccccc1)N1CCC[C@H]1c1cnc(-c2ccc([N+](=O)[O-])cc2)[nH]1	My 35/80		MIC	7 d	62.5 µM
N/C(=N\N=C\c1cc(Cl)ccc1O)SCc1ccc(F)cc1	ATCC 12478	broth dilution	MIC	14 d	16 µM
CC(C)[C@H](NC(=O)OCc1ccccc1)c1cnc(-c2ccccc2)[nH]1	My 235/80		MIC	14 d	62.5 µM
Cc1ccc2nc(C)c(C(=O)NCc3ccc(C(F)(F)F)cc3)n2c1	Clinical isolate 379	MTT	MIC		<0.06 µg/mL
CCC(C)c1ccc(-n2c(=S)oc3ccc(Br)cc3c2=S)cc1	6509/96	broth dilution	MIC	21 d	4 µM